## PSTVd loop 6 mutant pool in Nicotiana benthamiana

Source: Wu et al. 2024 (doi:10.1371/journal.ppat.1012142), supplementary data.

PSTVd intermediate strain, loop 6: wild type UGACCGCGAG, pool pattern UNNNCGNNNG; upper and lower strand joined, each 5' to 3', the first 5 letters being the upper strand, closing pairs included.

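Three N. benthamiana plants were inoculated with the whole mutant pool. Progeny were sequenced from the inoculated region (day 5), the margin of the inoculated leaf (day 10) and systemic leaves (day 12).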

Values are reads per thousand in the sample; higher means more abundant, 0 means not found. Each value is the mean of three plants. "Pool" is the share in the plasmid pool used as inoculum, on the same scale. The inoculated region was read from the minus strand, the other sites from the plus strand. IR is the inoculated region, LM the leaf margin, Sys the systemic leaves. Sequences that differ at fixed positions probably stem from PCR or sequencing errors, and defective variants can be carried along by functional ones.

sequence,pool,IR,LM,Sys
CGACCGUUAG,0.0131,0.529,0.110,0
GGACCGAGAG,0.0131,0.664,0.104,0.0128
UAACCGAUCG,0.170,0.0777,0,0
UAAGCGCAAG,0.157,0.729,0.0759,0
UAAGCGCGUG,0.183,0.109,0.0252,0
UAAUCGCUGG,0.222,0.101,0.00773,0
UACCCGGGAG,0.183,0.0899,0,0
UACGCGCUGG,0.157,0.0596,0.00920,0
UAGACGGCCG,0.0915,0.0539,0.00773,0
UAGACGUUGG,0.222,0.0844,0,0
UAGUCGGCGG,0.157,0.0833,0,0
UAUACGUUGG,0.366,0.0944,0.00773,0
UAUCCGCUCG,0.288,0.0775,0,0
UAUCCGGACG,0.196,0.113,0,0
UAUGCGCUCG,0.222,0.0656,0,0
UAUUCGCGCG,0.196,0.0482,0.00920,0
UCAACGCACG,0.157,0.655,0.0324,0
UCAACGGCGG,0.170,0.130,0.00773,0
UCAACGUUGG,0.235,0.0894,0,0
UCCACGCUGG,0.131,0.0660,0.00773,0
UCCGCGCCGG,0.248,0.0900,0.0261,0
UCCUCGCACG,0.170,0.0828,0,0
UCCUCGCGCG,0.235,0.155,0.00773,0
UCCUCGGACG,0.222,0.0723,0.00773,0
UCCUCGUCGG,0.366,0.137,0,0
UCCUCGUGUG,0.248,0.108,0,0
UCGACGCACG,0.209,0.108,0,0
UCGACGCGAG,0.144,0.132,0.0184,0.0945
UCGACGGCGG,0.209,0.0892,0,0
UCGCCGAGAG,0.157,0.612,0.0360,0
UCGGCGAUGG,0.366,0.0422,0,0.0137
UCGGCGCUUG,0.353,0.117,0.00920,0
UCGUCGAAUG,0.222,0.102,0,0
UCGUCGUGGG,0.222,0.0831,0,0
UCUACGGAUG,0.275,0.136,0.270,0
UCUACGGGGG,0.144,0.0597,0,0
UCUUCGGACG,0.235,0.0781,0.0168,0
UGAACGCCCG,0.209,0.127,0,0
UGAUCGAAUG,0.366,0.0772,0.0155,0
UGCUCGGUAG,0.353,0.0771,0.0169,0.0135
UGGCCGACCG,0.170,0.221,0.0155,0
UGGCCGAGUG,0.248,0.125,0,0
UGGGCGGGGG,0.196,0.0654,0,0
UGGGCGUCCG,0.170,0.0596,0,0
UGGGCGUGAG,0.222,0.0829,0.00920,0
UGGUCGAUAG,0.209,0.120,0.0541,0
UGGUCGCUAG,0.170,0.0961,0.00773,0
UGGUCGCUCG,0.275,0.0641,0,0
UGUACGCCGG,0.248,0.0713,0.0155,0
UGUACGCGCG,0.196,0.127,0.00773,0
UGUCCGGAAG,0.0915,0.137,0.00773,0
UGUGCGAGGG,0.131,0.0844,0,0
UGUGCGCAGG,0.170,0.137,0,0
UGUUCACGAG,0.0131,0,0,0
UUCCCGCGCG,0.235,0.101,0.0176,0
UUCGCGAAUG,0.510,0.113,0,0
UUCGCGUGAG,0.288,0.107,0.00920,0
UUCGCGUUUG,0.353,0.0837,0,0
UUUACGACGG,0.105,0.0782,0.0169,0
UUUACGCGUG,0.301,0.0954,0.0155,0
UUUCCGUAGG,0.301,0.131,0.0464,0
UUUGCGCCAG,0.0784,0.0893,0,0
UUUGCGGCGG,0.118,0.0652,0.00773,0
UUUUCGUCCG,0.131,0.113,0,0

A selection of 8 entries from above:

sequence	pool	IR	LM	Sys
UCUACGGGGG	0.144	0.0597	0	0
UUUUCGUCCG	0.131	0.113	0	0
UCGGCGCUUG	0.353	0.117	0.00920	0
UAUACGUUGG	0.366	0.0944	0.00773	0
UCCUCGUGUG	0.248	0.108	0	0
UAUCCGGACG	0.196	0.113	0	0
UCGACGCACG	0.209	0.108	0	0
UUCGCGUUUG	0.353	0.0837	0	0

For reference, wild type rose from 20.7 per thousand in the pool to 195, 198, 203 (inoculated region), 629, 591, 734 (leaf margin) and 942, 870, 868 (systemic leaves). Samples held 36,220 to 57,551 reads, so the smallest values rest on one or two reads.